The values that follow come from the supplement of paper PMC12637763.

The list shows a part of the results. Env chains of viruses from a treatment-interruption trial, translated from the printed DNA. IC50 / IC80 of two broadly neutralizing antibodies; lower = more sensitive virus; >50 µg/ml means not reached and <0.001 µg/ml is below the lowest dose. No active / inactive call.

The target of test [1] is antibody 10-1074. The test is described as follows: neutralization IC50; higher = virus less sensitive to the antibody. Here is the method: (§1)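 Pseudovirus bearing the Env chain mixed with antibody, from 50 µg/ml in fivefold dilutions, on TZM-bl reporter cells, in duplicate.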
In test [2] the target is antibody 3BNC117. The description is as above. Here is the method:
as §1

Test [3] deals with antibody 10-1074. Put plainly: neutralization IC80; higher = virus less sensitive to the antibody. Here is the method:
as §1

Test [4] concerns the target antibody 3BNC117. The test is described as above. Here is the method:
as §1

B1: HIV-1 Env, reservoir clone (protein)
chain: MKAKETRKNYQHLWRWGIMLLGMLMICSAASQLWVTVYYGVPVWKEATTTLFCASDAKAYDTEVHNVWATHACVPTDPNPQEVVLGNVTEDFNMWKNNMVEQMHEDIISLWDQSLKPCVKITPLCVTLNCTEYSNATSTTWGQMEKGEIKNCSFNVTTNIKNKMQKEYALFYKLDVVPIGDNSTNYRLIKCNTSAITQACPKVSFQPIPIHYCAPAGFAILKCNNKTFNGLGPCTNVSTVQCTHGIRPVVSTQLLLNGSLAEEEIVIRSENFSDNAKNIIVHLNASIEINCTRPNNNTRKSITIGPGRAFYATGDVIGDIRQAHCNISGEKWNEALKQIAIKLREQFGHDKTIVFNQSSGGDPEIVAHSVNCGGEFFYCNSTKLFNSTWHSNGTQNNTTESNETITLPCKIKQIINLWQEVGKAIYAPPISGPIRCSSNITGLLLTRDGGHTSETNKETFRPGGGDMRDNWRSELYKYKVVKIEPLGVAPTKAKRRVVQRERRAVGTFGALFLGFLGTAGSTMGAASITLTVQARQLLSGIVQQQNNLLKAIEAQQHLLQLTVWGIKQLQARVLAVERYLKDQQLLGLWGCSGKLICTTTVPWNASWSNKSLEQIWENMTWMQWEKEIDNYTGIIYSLISESQLQQEKNEKELLELDKWASLWTWFDITNWLWYIRIFIMIVGGLIGLRIVFAVLSIVNKVRKGYSPLSFQTRLPTPRGPDRPEGIEEEGGERGRDTSIRLVDGFLALIWDDLRNLCLFSYHHLRDLILIVVRTVELLGRRGWELLKYWWNLLKYWSQELKKSAVSLFNAAAIAVAEGTDRVIEVVQRAGRGILHVPRRIRQGLERALQ
Consider B1, for which the “neutralization IC50” value was less than 0.001 µg/mL in the test with antibody 10-1074 [1] and 0.041 µg/mL with antibody 3BNC117 [2]. The entries for the “neutralization IC80” value in the test with antibody 10-1074 [3] and with antibody 3BNC117 [4] were 0.003 µg/mL and greater than 50 µg/mL, respectively.

B2: HIV-1 Env, reservoir clone (protein)
chain: MKAKETRKNYQHLWRWGIMLLGMLMICSAASQLWVTVYYGVPVWKEATTTLFCASDAKAYDTEVHNVWATHACVPTDPNPQEVVLGNVTEDFNMWKNNMVEQMHEDIISLWDQSLKPCVKITPLCVTLNCTEYSNATSTTWGQMEKGEIKNCSFNVTTNIKNKMQKEYALFYKLDVVPIGDNSTNYRLIKCNTSAITQACPKVSFQPIPIHYCAPAGFAILKCNNKTFNGLGPCTNVSTVQCTHGIRPVVSTQLLLNGSLAEEEIVIRSENFSDNAKNIIVHLNASIEINCTRPNNNTRKSITIGPGRAFYATGDVIGDIRQAHCNISGEKWNEALKQIAIKLREQFGHNKTIVFNQSSGGDPEIVAHSVNCGGEFFYCNSTKLFNSTWHSNGTQNNTTESNETITLPCKIKQIINLWQEVGKAIYAPPISGPIRCSSNITGLLLTRDGGHTSETNKETFRPGGGDMRDNWRSELYKYKVVKIEPLGVAPTKAKRRVVQRERRAVGTFGALFLGFLGTAGSTMGAASITLTVQARQLLSGIVQQQNNLLKAIEAQQHLLQLTVWGIKQLQARVLAVERYLKDQQLLGLWGCSGKLICTTTVPWNASWSNKSLEQIWENMTWMQWEKEIDNYTGIIYSLISESQLQQEKNEKELLELDKWASLWTWFDITNWLWYIKIFIMIVGGLIGLRIVFAVLSIVNKVRKGYSPLSFQTRLPTPRGPDRPEGIEEEGGERGRDTSIRLVDGFLALIWDDLRNLCLFSYHHLRDLILIVVRTVELLGRRGWELLKYWWNLLKYWSQELKKSAVSLFNAAAIAVAEGTDRVIEVVQRAGRGILHVPRRIRQGLERALQ
B2: the “neutralization IC50” value with antibody 10-1074 [1] was less than 0.001 µg/mL; with antibody 3BNC117 [2], 0.005 µg/mL. Moreover, the “neutralization IC80” value is 0.001 µg/mL with antibody 10-1074 [3] and 2.9 µg/mL in the test with antibody 3BNC117 [4].

B3: HIV-1 Env, reservoir clone (protein)
chain: MKVKVTMRNYQNLWRGGTLLLGMLMICSGAEQLWVTVYYGVPVWKEANTTLFCASDAKAYDTEVHNVWATHACVPTDPSPQEVVLENVTEDFNIWKNNMVEQMHEDIISLWDQSLKPCVKLTPLCVTLNCSNVNNQTGTNNNSSHGKDVEGEMKNCSFNVTTNIRDKIKREYALLYKLDIVPIDNDNTSYTLTSCNTSVITQACPKVSFEPIPIHYCAPAGFAILKCNNKTFNGKGPCTNVSTVQCTHGIRPVVSTQLLLNGSLAEDVVLRSENFTNNAKTIIVQLKEPVIINCTRPNNNTRKSIPMGPGRAWYTTGEIIGDIRQAHCNISKAQWNKTLQQVVTKLREQFGNKTIVFNQPTGGDPEIVMHSFNCGGEFFYCNTSKLFNSTWNNSTQGINSTGESNTTITIQCKIKQIINMWQQVGKAMYAPPIAGQIKCSSNITGLLLTRDGGGNKTENETFRPAGGDMRDNWRSELYKYKVVQIKPLGIAPTKAKRRVVQREKRAVGIGALFLGFLGAAGSTMGAAAVTLTVQARQLLSGIVQQQNNLLRAIEAQQHMLQLTVWGIKQLQARVLAVERYLRDQQLLGIWGCSGKLICTTTVPWNNSWSNKSLDDIWGNMTWMEWEKEIDNYTYTIYKLIEESQNQQEKNEQELLELDKWANLWNWFDITNWLWYIKIFIIIVGGLIGLRIVFAVLSIVNRVRQGYSPLSLQTLLPAPRGPDRPGEIEKEGGERDKDTSVRLVNGFLAIIWDDLRSLCLFSYRHLRDLLLIVTRIVGLLGHRGWEVLRYWWNLLQYWIQELKNSAVSLLNVTAIAVAEGTDRVIEIAQRACRAVLHIPRRIRQGLERGLL
For B3, the “neutralization IC50” value in the test with antibody 10-1074 [1] came out at 0.003 µg/mL; with antibody 3BNC117 [2], 0.04 µg/mL. For the same molecule, the “neutralization IC80” value turned out to be 0.01 µg/mL with antibody 10-1074 [3] and 0.186 µg/mL with antibody 3BNC117 [4].

B4: HIV-1 Env, rebound clone, antibody arm (protein)
chain: MRVRGIPRNWQHLWTWWTLTLGLVIICSTSDNLWVTVYYGVPVWEDADTPLFCASDAKAYSTEKHNVWATHACVPTDPNPQELHLENVTEEFNMWKNNMVEQMHEDIISLWDEALKPCVKLTPLCVTLNCVSLNCSSVNKNVTNGNNSTECAEERENLRNCSFNVTTELKDKKEQTYALFYKLDVVQLNSGNNNNNTYRLINCNVSAIKQACPKVTFDPIPIHYCAPAGFAILKCNDKNFNGTGQCHNVSTVLCTHGIKPVVSTQLLLNGSLSEDEIVIKSENITDNAKSIIVQLNSTVSITCSRPNNNTRKSIRIGPGQVFYAQGDIIGDIRQAHCNVNRGNWTKVMQEVKGQLQKIFNKNITFNSSTGGDLEITTHSFNCRGEFFYCNTTGLFDDTLFNNNNTNDTSPITLPCKIKQIVRMWQRVGQAMYAPPIAGEITCISNITGLLLTRDGGNTTNASNETFRPGGGNMRDNWRSELYKYKVVKIKPLGVAPTKARRRVVQREKRAVGLGAVFLGFLGTAGSTMGAASITLTVQVRQLLSGIVQQQSNLLRAIEAQQHLLQLTVWGIKQLQARVLAVERYLKDQQLLGIWGCSGKLICTTNVPWNTSWSNKSYNEIWDNMTWMQWDKEVRNYSQQIYDLIQESQTQQEKNEQELLALDKWTSLWSWFDISSWLWYIKIFIMIVGGLIGLRIVFAVLSIVKRVRQGYSPLSFQTLTHHQREPDRPEGIEEGGGEQDKDRSIRLVSGFLPLAWDDVRSLCLFLYHRLRDFILIAARTLELLGRSCLQGLRLGREGLKYLWNLLVYWGQELKNSAINLFDTAAIVVANWTDRVIEIAQGIGRAILNIPRRIRQGLERALL
Take B4: the “neutralization IC50” value in the test with antibody 10-1074 [1] is greater than 50 µg/mL; with antibody 3BNC117 [2], 0.246 µg/mL. In addition, the “neutralization IC80” value is greater than 50 µg/mL in the test with antibody 10-1074 [3] and 0.848 µg/mL with antibody 3BNC117 [4].

B5: HIV-1 Env, rebound clone, antibody arm (protein)
chain: MRVRGIPRNWQHLWTWWTLTLGLVIICSTSDNLWVTVYYGVPVWEDADTPLFCASDAKAYSTEKHNVWATHACVPTDPNPQELHLENVTEEFNMWKNNMVEQMHEDIISLWDEALKPCVKLTPLCVTLNCVSLNCSSVNKNVTNGNNSTECAEERENLRNCSFNVTTELKDKKEQTYALFYKLDVVQLNSGNNNNNTYRLINCNVSAIKQACPKVTFDPIPIHYCAPAGFAILKCNDKNFNGTGQCHNVSTVLCTHGIKPVVSTQLLLNGSLSEDEIVIKSENITDNAKSIIVQLNSTVSITCSRPNNNTRKSIRIGPGQVFYAQGDIIGDIRQAYCNVNRGNWTKVMQEVKGQLQKIFNKNITFNSSTGGDLEITTHSFNCRGEFFYCNTTGLFDDTLFNNNNTNDTSPITLPCKIKQIVRMWQRVGQAMYAPPIAGEITCISNITGLLLTRDGGNTTNASNETFRPGGGNMRDNWRSELYKYKVVKIKPLGVAPTKARRRVVQREKRAVGLGAVFLGFLGTAGSTMGAASITLTVQVRQLLSGIVQQQSNLLRAIEAQQHLLQLTVWGIKQLQARVLAVERYLKDQQLLGIWGCSGKLICTTNVPWNTSWSNKSYNEIWDNMTWMQWDKEVRNYSQQIYDLIQESQTQQEKNEQELLALDKWTSLWSWFDISSWLWYIKIFIMIVGGLIGLRIVFAVLSIVKRVRQGYSPLSFQTLTHHQREPDRPEGIEEGGGEQDKDRSIRLVSGFLPLAWDDVRSLCLFLYHRLRDFILIAARTLELLGRSCLQGLRLGREGLKYLWNLLVYWGQELKNSAINLFDTAAIVVANWTDRVIEIAQGIGRAILNIPRRIRQGLERALL
B5: the results for the “neutralization IC50” value with antibody 10-1074 [1] and with antibody 3BNC117 [2] were greater than 50 µg/mL and 0.139 µg/mL, respectively. Further, the “neutralization IC80” value with antibody 10-1074 [3] is greater than 50 µg/mL; with antibody 3BNC117 [4] it was 0.947 µg/mL.

B6: HIV-1 Env, reservoir clone (protein)
chain: MRVRGIRKNYQRLWGWGITLLGMLMICSATEKMWVTVYYGVPVWKEATTTLFCASDAKAYDKEVHNVWATHACVPTDPSPQEVGLENVTETFNMWKNNMVDQMHEDIMSLWDQSLKPCVKLTPLCVTLNCTDATKVNASEINNSSLGEMKNCSFNITTSIRDKIQRTYAYFYKLDLVPIDTNNTSYRLISCNTSVITQACPKVSFEPIPIHYCAPAGFAILKCRDKKFNGKGECRNVSTVQCTHGIRPVVSTQLLLNGSLAEEEVVIRSNNFTDNAKTIIVQLNQSVQINCTRPNNNRRKSINIGPGRAFYAAGDIIGDIRQAHCNISRTKWNNTLRQIVEKLKEQFPNKTIVFNQSSGGDPEIVMHSFNCGGEFFFCDTTKLFNSTWSNNGTWNSTNSTVGNDTITLPCRMKQIINMWQEVGKAMYAPPISGQIRCSSNITGLLLTRDGGKVNSTNETFRPGGGDMRDNWRSELYKYKVVKIKPLGIAPTKAKRRVVQREKRAVGIGAVFLGFLGAAGSTMGAASVTLTVQARLLLSGIVQQQNNLLRAIEAQQHLLQLTVWGIKQLQARVLAVERYLQDQQLLGIWGCSGKLICTTAVPWNTSWSNKTYKGIWENMTWMQWEKEIDNYTGLIYNLIEESQNQQEKNEQELLELDKWASLWNWFSITQWLWYIKLFVMIVGGLIGLRIVMTILSIVNRVRKGYSPLSFQTHLPTPRGPDRPEGTEEEGGERERDRSERLVNGFLALIWDDLRSLCLFSYHRLRDLILVVTRIVELLGRRGREVLKYWWNLLQYWGQELRNSAVSLLDAIAIAVAGGTDRIIEGVQRVCRAIRHIPRRIRQGAERALV
Regarding B6, the entries for the “neutralization IC50” value with antibody 10-1074 [1] and with antibody 3BNC117 [2] were less than 0.001 µg/mL and 0.007 µg/mL, respectively. Further, the “neutralization IC80” value came out at 0.007 µg/mL with antibody 10-1074 [3] and 0.036 µg/mL in the test with antibody 3BNC117 [4].
